Results of unrelated studies side by side (data: NIAID ChemDB).

Shared fields: tests in culture; agent: Mycobacterium tuberculosis

A number after MIC or MFC names an inhibition level or a share of isolates.

compound,strain,dose,read-out,cells,setting,read by,changes,value
CCN(CC)N(C(=O)c1cccc(C)c1)C(=O)c1cccc(C)c1,H37Rv,12.5 µg/mL,inhibition,-,-,BACTEC,-,3%
N/C(=N/N=C/c1cccc(Br)c1)c1ccccn1,1062 (THC-resistant),-,MIC,-,-,-,-,32 µg/mL
CC(=O)Nc1ccc(OCC(=O)NN2C(=O)CSC2c2ccccc2O)cc1,H37Rv,12.5 µg/mL,inhibition,-,-,-,-,0%
COc1ccc(CNC(=O)c2nc([N+](=O)[O-])cn2C)cc1,H37Rv,-,MIC90,-,-,-,-,>200 µg/mL
CCCCCCCCCCCCN1C(=O)C(CC(=O)O)SC12CCCC2,H37Ra,25 µg/mL,inhibition,-,-,resazurin,-,97%
CCCCN(CCCC)c1cc(=O)nc2ccccn12,H37Rv,-,MIC bound,-,-,resazurin,-,>6.25 µg/mL
N/C(=N/N=C/c1ccccc1)c1ccccn1,1814 (THC-resistant),-,MIC,-,-,-,-,32 µg/mL
CCCCSc1nc2ccccc2[nH]1,My 331/88,-,MIC,-,-,-,-,>250 µM
CCN=C(Nc1cccc(C2=NCCN2)c1)c1ccc(C(=NCC)Nc2cccc(C3=NCCN3)c2)cc1,H37Rv,-,MIC bound,-,-,BACTEC,-,>12.5 µg/mL
CC(=O)Nc1ccc(OCC(=O)NN2C(=O)CSC2c2ccc(Cl)cc2Cl)cc1,H37Rv,12.5 µg/mL,inhibition,-,-,-,-,0%
Clc1ccccc1CSc1nc2ccccc2[nH]1,My 331/88,-,MIC,-,-,-,-,>125 µM
C=C(C)[C@H]1CCC2C(=CC[C@@]3(C)C(C(C)CC/C=C(\C)C(=O)O)CC[C@]23C)[C@]1(C)CCC(=O)O,H37Rv,-,MIC bound,-,-,BACTEC,-,>12.5 µg/mL
N/C(=N\N=C\c1ccccc1)SCc1ccc(C(F)(F)F)cc1,H37Rv,-,MIC,-,14 d,broth dilution,-,32 µM
C=C1C(=O)O[C@H]2/C=C(/C)C(=O)C[C@@H]3OC(C)(C)O[C@@]3(C)C[C@H](OC(=O)/C(C)=C\C)[C@H]12,H37Rv,12.5 µg/mL,inhibition,-,-,BACTEC,-,17%
COc1cc(C2SC(C)C(=O)N2NC(=O)COc2ccc(NC(C)=O)cc2)ccc1O,H37Rv,-,EC50,-,-,-,-,>12.5 µg/mL
COc1ccc(CS/C(N)=N/N=C/c2cc(Br)ccc2O)cc1,H37Rv,-,MIC,-,21 d,broth dilution,-,62.5 µM
O=[N+]([O-])c1ccc(CSc2nc3ccccc3[nH]2)c([N+](=O)[O-])c1,My 331/88,-,MIC,-,-,-,-,8 µM
CC(=O)OC1C(COS(C)(=O)=O)OC(OC2(COS(C)(=O)=O)OC(COS(C)(=O)=O)C(OC(C)=O)C2OC(C)=O)C(OS(C)(=O)=O)C1OC(C)=O,H37Rv,-,MIC bound,-,-,BACTEC,-,>12.5 µg/mL
COc1cccc(NC(=O)c2ccc(S(C)=O)o2)c1,H37Rv,-,MIC90,-,-,-,-,200 µg/mL
COC1OC2COC1(OCc1ccccc1)C1OC(C)(C)OC21,H37Rv,-,MIC bound,-,-,BACTEC,-,>12.5 µg/mL
N/C(=N/N=C/c1ccc(Br)cc1)c1ccccn1,1814 (THC-resistant),-,MIC,-,-,-,-,32 µg/mL
CCCc1[nH]n(-c2ccccc2)c(=O)c1N=Nc1ccc(Cl)cc1,H37Rv,-,MIC bound,-,-,BACTEC,-,>12.8 µg/mL
NNC(=O)c1ccncc1,NHN20,-,MIC99,-,-,-,-,0.03 µg/mL
Fc1cccc(Cl)c1CSc1nc2ccccc2[nH]1,My 331/88,-,MIC,-,-,-,-,>62 µM
S=C(Nc1ccccc1)Nc1ccc(-c2nnc(NC3CCCCC3)s2)cc1,H37Rv,-,MIC,-,-,-,-,>6.25 µg/mL
CCCCOc1ccc(NC(=S)Nc2ccc(OCCN(CC)CC)cc2)cc1,H37RV #225,-,MIC,-,-,-,-,125 µg/mL
CN[C@@H]1[C@@H](O)[C@@H](O[C@@H]2[C@@H](O)[C@H](O[C@H]3O[C@H](CN)CC[C@H]3N)[C@@H](N)C[C@H]2N)OC[C@]1(C)O,Praha 131,-,MIC99,-,-,broth dilution,MDR,>8 µM
N/C(=N/N=C/c1ccccc1Cl)c1ccccn1,1062 (THC-resistant),-,MIC,-,-,-,-,16 µg/mL
Clc1ccc(CSc2nc3ccccc3[nH]2)cc1Cl,My 331/88,-,MIC,-,-,-,-,>62 µM
CC(C)N=c1cc2n(-c3ccc(Cl)cc3)c3ccccc3nc-2cc1Nc1ccc(Cl)cc1,Praha 1,-,MIC99,-,-,broth dilution,MDR,0.5 µM
CCCCCCCCc1ccc(Oc2ccccc2)c(O)c1,H37Rv pMH29:inhA,-,MIC99,-,-,-,-,22.9 µg/mL
CCCCCCCCCCCCN1C(=O)C(CC(=O)O)SC12CCC(C(C)(C)C)CC2,H37Ra,25 µg/mL,inhibition,-,-,resazurin,-,96%
CCOC(=O)C1=CNc2c(C#N)cnn2C1(C(=O)OCC)c1cn(C)c2ccccc12,H37Rv,-,MIC bound,-,-,BACTEC,-,>6.25 µg/mL
CCCCCCCCS(=O)(=O)CC(N)=O,5D5178,-,MIC,-,-,-,-,≤6.25 µg/mL
N/C(=N\N=C\c1ccccc1)SCc1ccc(Br)cc1,H37Rv,-,MIC,-,14 d,broth dilution,-,16 µM
N/C(=N/N=C/c1cccc(F)c1)c1ccccn1,1454 (THC-resistant),-,MIC,-,-,-,-,64 µg/mL
N#C/C(=C\c1cccc(C#N)c1)n1nnc2ccccc21,ATCC 27294,-,MIC90,-,-,-,-,64.5 µM
CCCCCCCCCCCCN1C(=O)C(CC(=O)O)SC12CCN(C(=O)C(N)CC(=O)O)CC2,H37Ra,-,EC50,-,-,resazurin,-,>25 µg/mL
N#C/C(=C\c1cccc(F)c1)n1nnc2ccccc21,ATCC 27294,-,MIC90,-,-,-,-,>100 µM
Cn1cc([N+](=O)[O-])cc1C(=O)NCc1ccccn1,H37Rv,-,MIC90,-,-,-,-,>200 µg/mL
CCCCCCCCCCCCCCCCS(=O)(=O)N(/N=c1\sc2ccccc2n1C)C(=O)OCC,H37Rv,12.5 µg/mL,inhibition,-,-,BACTEC,-,-8%
S=C(Nc1ccccc1)Nc1ccc(-c2nnc(Nc3ccccc3)s2)cc1,H37Rv,-,MIC,-,-,-,-,>6.25 µg/mL
Cc1ccc(CS/C(N)=N/N=C/c2ccccc2O)cc1,H37Rv,-,MIC,-,21 d,broth dilution,-,62.5 µM
Cc1cccc(/C=N/NC(=S)N(C)C)n1.[Cl][Cu][Cl],V2475,-,MIC90,-,-,-,-,0.78 µM
CCCCCCCCCCCCSC(N)=S,H37Rv,-,MIC,VERO,-,-,-,0.78 µg/mL
S=C(Nc1ccccc1)Nc1ccc(-c2nnc(NCc3ccccc3)s2)cc1,H37Rv,6.25 µg/mL,inhibition,-,-,-,-,16%
O=[N+]([O-])c1ccc2c(c1)S(=O)c1cc([N+](=O)[O-])ccc1N2,H37Rv,-,MIC bound,-,-,BACTEC,-,>12.5 µg/mL
CCn1cc(C(=O)O)c(=O)c2cc(F)c(N3CCNCC3)cc21,134 isolates,-,MIC90,-,-,-,-,8 µg/mL
N/C(=N\N=C\c1cc(Cl)ccc1O)SCc1ccc(Cl)cc1,H37Rv,-,MIC,-,21 d,broth dilution,-,16 µM
CCCCCCCCCCCCN1C(=O)C(CC(=O)O)SC12CCN(C(=O)C(N)Cc1ccccc1)CC2,H37Ra,25 µg/mL,inhibition,-,-,resazurin,-,97%
COc1c(N2CC[C@@H](C(C)(C)N)C2)c(F)cc2c(=O)c3c(=O)[nH]sc3n(C3CC3)c12,Isoniazid resistant isolate 15,-,MIC,-,-,-,-,0.06 µg/mL
CCN(CC)CCOc1ccc(NC(=S)Nc2ccc(OCC(C)C)cc2)cc1,H37RV #225,-,MIC,-,-,-,-,62.5 µg/mL
C[C@H]1COc2c(N3CCN(C)CC3)c(F)cc3c(=O)c(C(=O)O)cn1c23,22 strains (rifampicin-susceptible),-,MIC50,-,-,-,-,0.39 µg/mL
N/C(=N\N=C\c1cc(Cl)cc(Cl)c1O)SCc1cccc(Cl)c1,H37Rv,-,MIC,-,14 d,broth dilution,-,16 µM
Cc1ccc(/C=N/N=C(/N)c2ccccn2)c(C)c1,1062 (THC-resistant),-,MIC,-,-,-,-,32 µg/mL
NC(=S)NN=C1CCCCCCC1,H37Rv,-,MIC bound,-,-,BACTEC,-,≤12.5 µg/mL
CC[C@@H](CO)NCCN[C@@H](CC)CO,Praha 4,-,MIC99,-,-,broth dilution,MDR,16 µM
CN(C)C(=O)Nc1c([N+](=O)[O-])cc(C(F)(F)F)cc1[N+](=O)[O-],H37Rv,-,MIC bound,-,-,BACTEC,-,≤12.5 µg/mL
N#C/C(=C\c1ccc(I)cc1)n1nnc2ccccc21,ATCC 27294,-,MIC90,-,-,-,-,33.3 µM
C[C@@H]1CN(c2c(F)c(N)c3c(=O)c(C(=O)O)cn(C4CC4)c3c2F)C[C@H](C)N1,22 strains (rifampicin-susceptible),-,MIC50,-,-,-,-,0.2 µg/mL
NCC[C@H](O)C(=O)N[C@@H]1C[C@H](N)[C@@H](O[C@H]2O[C@H](CN)[C@@H](O)[C@H](O)[C@H]2O)[C@H](O)[C@H]1O[C@H]1O[C@H](CO)[C@@H](O)[C@H](N)[C@H]1O,8666/2010,-,MIC99,-,-,broth dilution,MDR,0.5 µM
CC(=O)Nc1ccc(OCC(=O)NN2C(=O)CSC2c2ccc(O)cc2)cc1,H37Rv,12.5 µg/mL,inhibition,-,-,-,-,0%
FC(F)(F)c1cc(CSc2nc3ccccc3[nH]2)cc(C(F)(F)F)c1,My 331/88,-,MIC,-,-,-,-,62 µM
Nc1cc2c(cc1-n1cccc1)oc1ccccc12,H37Rv,-,MIC bound,-,-,BACTEC,-,>12.5 µg/mL
N/C(=N\N=C\c1ccccc1O)SCc1ccc(Br)cc1,H37Rv,-,MIC,-,21 d,broth dilution,-,32 µM
S=C1N(/N=C/c2c3ccccc3cc3ccccc23)C(=Nc2ccccc2)C(=Nc2ccccc2)N1c1ccccc1,H37Rv,-,MIC bound,-,-,BACTEC,-,>12.5 µg/mL
CC1COc2c(N3CCN(C)CC3)c(F)cc3c(=O)c(C(=O)O)cn1c23,Praha 1,-,MIC99,-,-,broth dilution,MDR,1 µM
COc1ccc(NC(=O)c2cc([N+](=O)[O-])cn2C)cc1,H37Rv,-,MIC90,-,-,-,-,>200 µg/mL
CCCCCCCCCCCCN1C(=O)C(CC(=O)O)SC12CCN(OC(=O)C(C)(C)C)CC2,H37Ra,25 µg/mL,inhibition,-,-,resazurin,-,96%
N#C/C(=C\c1ccc(Cl)c(Cl)c1)n1nnc2ccccc21,ATCC 27294,-,MIC90,-,-,-,-,≥100 µM
NNC(=O)c1ccncc1,Praha 1,-,MIC99,-,-,broth dilution,MDR,16 µM
C[C@]1(COc2ccc(N3CCC(Oc4ccc(OC(F)(F)F)cc4)CC3)cc2)Cn2cc([N+](=O)[O-])nc2O1,H37Rv (EB-resistant),-,MIC,-,-,-,-,0.012 µg/mL
N/C(=N\N=C\c1cc(Br)ccc1O)SCc1ccc(C(F)(F)F)cc1,H37Rv,-,MIC,-,14 d,broth dilution,-,32 µM
Cc1oc(C)c2c(N=Nc3ccc([N+](=O)[O-])cc3[N+](=O)[O-])c3ccccc3c(O)c12,H37Rv,12.5 µg/mL,inhibition,-,-,BACTEC,-,90%
COc1cc(/C=N/NC(=O)COc2ccc(NC(C)=O)cc2)cc(OC)c1OC,H37Rv,12.5 µg/mL,inhibition,-,-,-,-,1%
CN[C@@H]1[C@H](O[C@H]2[C@H](O[C@H]3[C@H](O)[C@@H](O)[C@H](N=C(N)N)[C@@H](O)[C@@H]3N=C(N)N)O[C@@H](C)[C@]2(O)C=O)O[C@@H](CO)[C@H](O)[C@H]1O,H37RV #80,-,MIC,-,-,-,-,4 µg/mL
N#C/C(=C\c1ccc(C#N)cc1)n1nnc2ccccc21,ATCC 27294,-,MIC50,-,-,-,-,>100 µM
O=C(O)COc1ccc(C(=O)/C(SS/C(C(=O)c2ccc(OCC(=O)O)c(Cl)c2Cl)=C2\C=C(c3ccccc3Cl)SS2)=C2/C=C(c3ccccc3Cl)SS2)c(Cl)c1Cl,H37Rv,-,MIC bound,-,-,BACTEC,-,>12.5 µg/mL
COc1cccc(/C=C(\C#N)n2nnc3ccccc32)c1,ATCC 27294,-,MIC50,-,-,-,-,52.7 µM
N#C[C@H](O[C@@H]1O[C@H](CO[C@@H]2O[C@H](CO)[C@@H](O)[C@H](O)[C@H]2O)[C@@H](O)[C@H](O)[C@H]1O)c1ccccc1,H37Rv,-,MIC,-,-,BACTEC,-,≥128 µg/mL
CCNc1nnc(-c2ccc(NC(=S)Nc3ccccc3)cc2)s1,H37Rv,6.25 µg/mL,inhibition,-,-,-,-,6%
CCOc1ccc2c(c1)n([O-])c1cc(Cl)ccc1[n+]2=O,H37Rv,-,MIC bound,-,-,BACTEC,-,≤12.5 µg/mL
O=C(NCc1ccc(N2CCOCC2)cc1)c1ccc([N+](=O)[O-])s1,H37Rv,-,MIC90,-,-,-,-,6.5 µg/mL

For reference, 6 entries again:

compound	strain	dose	read-out	cells	setting	read by	changes	value
CCNc1nnc(-c2ccc(NC(=S)Nc3ccccc3)cc2)s1	H37Rv	6.25 µg/mL	inhibition	-	-	-	-	6%
CCCCSc1nc2ccccc2[nH]1	My 331/88	-	MIC	-	-	-	-	>250 µM
COc1cccc(/C=C(\C#N)n2nnc3ccccc32)c1	ATCC 27294	-	MIC50	-	-	-	-	52.7 µM
CCN(CC)N(C(=O)c1cccc(C)c1)C(=O)c1cccc(C)c1	H37Rv	12.5 µg/mL	inhibition	-	-	BACTEC	-	3%
CC(=O)Nc1ccc(OCC(=O)NN2C(=O)CSC2c2ccccc2O)cc1	H37Rv	12.5 µg/mL	inhibition	-	-	-	-	0%
CC1COc2c(N3CCN(C)CC3)c(F)cc3c(=O)c(C(=O)O)cn1c23	Praha 1	-	MIC99	-	-	broth dilution	MDR	1 µM

An empty or dashed field is not shown. MIC bound comes from a single tested concentration. ECn: concentration that inhibits the pathogen or its effect by n%. Inhibition is in % at the dose shown (toxicity tests: loss of growth or viability). Rows are shuffled and stem from different studies.